The source of these data is PMC6193675.

The Ki is a dissociation constant, usually derived from enzyme kinetics or from competition with a known ligand. A low value points to a stronger hold on the target.

For this experiment, the target named is yeast-displayed unmodified gp120 from HIV strain YU2, fused at its C-terminal to Aga2p (mutated furin cleavage site) (HIV-1 strain YU2). The experiment in a line: flow cytometry on cells; competition: increasing soluble CD4 against VRC01 (1, 3 or 30 nM) on yeast-displayed gp120; secondary antibody at 4°C, cells on ice; Ki from the three antibody concentrations. A general note: In flow cytometry, cells or beads pass a laser one at a time.

With “purified soluble form of CD4 (from UniProt P01730 26-396) (receptor)”, the Ki turned out to be 0.58 nM, the logIC50 at 1 nM VRC01 was -0.45, the logIC50 at 3 nM VRC01 stood at 0.13 and the logIC50 at 30 nM VRC01 came out at 0.72.
